The values below are quoted from earlier work in patent publication US20070059684A1 (priority 1995, published 2007).

The test system of the series is tcm1/mak8 mutants. The following applies: cited from earlier work.

Regarding trichodermin, the “effectiveness in tcm1/mak8 mutants” value is on record as “ineffective”.
